Pooled drug test results. Numbers come from NIAID ChemDB, via PubChem.

Common to all: whole-cell or culture tests; organism: Aspergillus fumigatus; read-out: EC50

An empty or dashed field is not shown. Lines come from different laboratories, so protocols vary. ECn is the concentration giving n% inhibition of infection, replication or growth.

compound	strain	method	conditions	value
CCN(CC)C(=O)Oc1c(OC)cc2ccnc3c2c1N(C)C=C3	-	-	-	>15 µg/mL
NC(=O)c1cc[n+](Cc2ccc(C[n+]3ccc(/C=N/O)cc3)s2)cc1.[Cl-].[Cl-]	-	broth dilution	-	>20 µg/mL
CN(c1cc2ccccc2[n+](C)c1)c1ccccc1Cl.[I-]	ATCC 90906	resazurin	-	>20 µg/mL
C[C@@H]1[C@H](O)[C@@H](C)/C=C/C=C/C=C/C=C/C=C/C=C/C=C/[C@H](O[C@@H]2O[C@H](C)[C@@H](O)[C@H](N)[C@@H]2O)C[C@@H]2O[C@](O)(C[C@@H](O)C[C@@H](O)[C@H](O)CC[C@@H](O)C[C@@H](O)CC(=O)O[C@H]1C)C[C@H](O)[C@H]2C(=O)O	AF-294	broth dilution	-	0.5 µg/mL
C[n+]1cccc(N(CCCCCC2CCCCC2)c2cccc(C#N)c2)c1.[I-]	ATCC 90906	resazurin	-	>20 µg/mL
Cc1onc(-c2ccccc2)c1C=O	Clinical isolates	-	-	45.79 µg/mL
COc1cc2ccnc3c2c(c1OC(=O)c1ccc(F)cc1)N(C)C=C3	-	-	-	>15 µg/mL
CC(=O)O[C@H]1C[C@@]2(C)[C@@H](C[C@@H](O)[C@H]3[C@@]4(C)CC[C@@H](O)[C@@H](C)[C@@H]4CC[C@@]32C)/C1=C(\CCC=C(C)C)C(=O)O	-	agar diffusion / agar	-	>100 µg/mL
C[n+]1c2cccc(O)c2cc2sc3ccccc3c21	ATCC 90906	resazurin	-	>20 µg/mL
COc1cc2ccnc3c2c(c1O)N(C)C=C3	-	-	-	>15 µg/mL
O/N=C/c1cccc[n+]1Cc1csc2ccccc12.[Cl-]	-	broth dilution	-	>20 µg/mL
Cc1onc(-c2ccc(Cl)cc2Cl)c1C=O	Clinical isolates	-	-	18.78 µg/mL
COc1cc2ccnc3c2c(c1OC(=O)c1ccc(C)cc1)N(C)C=C3	-	-	-	>15 µg/mL
CN(c1ccccc1)c1cc2ccccc2[n+](C)c1.[I-]	ATCC 90906	resazurin	-	>20 µg/mL
ON=Cc1ccc[n+](Cc2csc3ccccc23)c1.[Cl-]	-	broth dilution	-	>20 µg/mL
C[n+]1cccc(Nc2ccccc2)c1.[I-]	ATCC 90906	resazurin	-	>20 µg/mL
C[C@@H]1CCC2(OC1)OC1CC3C4C[C@H](O)[C@H]5C[C@@H](O)CC[C@]5(C)C4CC(=O)[C@]3(C)C1[C@@H]2C	ATCC 90906	-	-	10 µg/mL
O=Cc1cc(-c2ccc(F)cc2)on1	Clinical isolates	-	-	>50 µg/mL
COc1cc2ccnc3c2c(c1OC(=O)c1ccc(OC(F)(F)F)cc1)N(C)C=C3	-	-	-	>15 µg/mL
S=C(S)n1nnc2ccccc21	-	broth dilution / absorbance	48 h	>50 µg/mL

For reference, 2 entries again:

C[C@@H]1[C@H](O)[C@@H](C)/C=C/C=C/C=C/C=C/C=C/C=C/C=C/[C@H](O[C@@H]2O[C@H](C)[C@@H](O)[C@H](N)[C@@H]2O)C[C@@H]2O[C@](O)(C[C@@H](O)C[C@@H](O)[C@H](O)CC[C@@H](O)C[C@@H](O)CC(=O)O[C@H]1C)C[C@H](O)[C@H]2C(=O)O ; strain: AF-294 ; method: broth dilution ; value: 0.5 µg/mL
COc1cc2ccnc3c2c(c1OC(=O)c1ccc(OC(F)(F)F)cc1)N(C)C=C3 ; value: >15 µg/mL